Pooled drug test results. Numbers come from NIAID ChemDB, via PubChem.

Common to all: whole-cell or culture tests

ECn is the concentration giving n% inhibition of infection, replication or growth. Blank or dashed fields: not listed here. Lines come from different laboratories, so protocols vary. Inhibition is in % at the dose shown (toxicity tests: loss of growth or viability).

structure	endpoint	method	cells	strain	species	tested at	result
CSc1nsc(-c2ccc(OC(C)(C)C)cc2)c1C#N	EC50	plaque count	L929	-	Encephalomyocarditis virus	-	3 µM
CSc1nsc(SC)c1C#N	EC50	plaque count	L929	Encephalomyocarditis virus	Encephalomyocarditis virus	-	>12 µM
N=C(N)c1ccc(CNCCCCNCc2ccc(C(=N)N)cc2)cc1	EC50	-	-	-	Encephalitozoon cuniculi	-	317 µM
CSc1nsc(-c2ccccc2)c1C#N	EC50	plaque count	L929	-	Encephalomyocarditis virus	-	10 µM
CSc1nsc(-c2cccs2)c1C#N	EC50	plaque count	L929	Encephalomyocarditis virus	Encephalomyocarditis virus	-	>6 µM
CSc1nsc(-c2ccc(OCCCOc3ccccc3)cc2)c1C#N	EC50	plaque count	HEP-2/L-929/VERO	-	Encephalomyocarditis virus	-	>20 µM
COc1ccc(OCCCCCCn2ccnc2)c(Cl)c1	EC50	plaque count	HeLa	-	Encephalomyocarditis virus	-	>130.8 µM
CC[C@@H](C)CNCCCNCCCCCCCNCCCNC[C@@H](C)CC	EC50	-	-	-	Encephalitozoon cuniculi	-	>50 µM
CSc1nsc(-c2ccc(OS(=O)(=O)c3ccc(C)cc3)cc2)c1C#N	EC50	plaque count	L929	-	Encephalomyocarditis virus	-	>25 µM
CCCCOc1ccc(-c2snc(SC)c2C#N)cc1	EC50	plaque count	L929	Encephalomyocarditis virus	Encephalomyocarditis virus	-	3 µM
CCNCCCCNCCCCNCCCCNCCCCNC(=O)CCN	EC50	-	-	-	Encephalitozoon cuniculi	-	58.5 µM
CCOC(=O)c1ccc(OCCCCOc2ccc(-c3snc(SC)c3C#N)cc2)cc1	EC50	plaque count	HEP-2/L-929/VERO	-	Encephalomyocarditis virus	-	>2 µM
N[C@@H]1C=C[C@H](NCCCNCC2CCCC(CNCCCNC3C=C[C@H](N)C3)C2)C1	EC50	-	-	-	Encephalitozoon cuniculi	-	<100 µM
CSc1nsc(-c2ccc(OCCCOc3ccc([N+](=O)[O-])cc3)cc2)c1C#N	EC50	plaque count	HEP-2/L-929/VERO	-	Encephalomyocarditis virus	-	>0.5 µM
N#Cc1c(-c2ccccc2)s[nH]c1=S	EC50	plaque count	L929	Encephalomyocarditis virus	Encephalomyocarditis virus	-	>60 µM
CSc1nsc(-c2ccc(OCCc3ccccc3)cc2)c1C#N	EC50	plaque count	HEP-2/L-929/VERO	-	Encephalomyocarditis virus	-	10 µM
CCNC/C=C\CNC/C=C\CNCCCCNC/C=C\CNCC	EC50	-	-	-	Encephalitozoon cuniculi	-	500 µM
CC[C@@H](C)CNCCCNCCCCCCCNCCCN	EC50	-	-	-	Encephalitozoon cuniculi	-	<500 µM
CCNCCCCNCCCCNCCCCNCCCCNC/C=C/CNCCCCNCCCCNCCCCNCCCCNCC	EC50	-	-	-	Encephalitozoon cuniculi	-	0.62 µM
CSc1nsc(-c2cc[n+](C)cc2)c1C#N	EC50	plaque count	L929	Encephalomyocarditis virus	Encephalomyocarditis virus	-	>1000 µM
c1ccc(CNCCCNCC2CCCC(CNCCCNCc3ccccc3)C2)cc1	EC50	-	-	-	Encephalitozoon cuniculi	-	<100 µM
O=C1CCC(N2C(=O)c3ccccc3C2=O)C(=O)N1	inhibition	-	MRC-5	-	Encephalitozoon intestinalis	1 µg/mL	4.4%
CSc1nsc(-c2ccc(OCCCc3ccccc3)cc2)c1C#N	EC50	plaque count	HEP-2/L-929/VERO	-	Encephalomyocarditis virus	-	10 µM
CSc1nsc(-c2ccc3ccccc3c2)c1C#N	EC50	plaque count	L929	Encephalomyocarditis virus	Encephalomyocarditis virus	-	>20 µM

Repeating the final 2 entries:

{"structure": "CSc1nsc(-c2ccc(OCCCc3ccccc3)cc2)c1C#N", "endpoint": "EC50", "method": "plaque count", "cells": "HEP-2/L-929/VERO", "species": "Encephalomyocarditis virus", "result": "10 µM"}
{"structure": "CSc1nsc(-c2ccc3ccccc3c2)c1C#N", "endpoint": "EC50", "method": "plaque count", "cells": "L929", "strain": "Encephalomyocarditis virus", "species": "Encephalomyocarditis virus", "result": ">20 µM"}